Data on 1 compound can be found in PubChem BioAssay AID602142 (NMMLSC, 2011).

The assay deals with Lethal factor (Bacillus anthracis) (UniProt P15917). Nature of the assay: Bacillus anthracis LF protease inhibitors, confirmation, biochemical, multiplex microsphere, cherry pick 1 (AID 602142). The following applies: multiplex microsphere protease cleavage assay, at 10 µM, active compounds read high.

The list shows a part of the results, in another mix than the full data. Activity calls are given as the source filed them. The rule behind the calls is not given here.

Consider `CN1CCC(Nc2ccc(F)c(Cl)c2)CC1`, for which the inhibition is inactive: 0.1%.
